{
  "source": "paper PMC6100073",
  "about": "“Activation of Anthracene Endoperoxides in Leishmania and Impairment of Mitochondrial Functions” (Molecules : A Journal of Synthetic Chemistry and Natural …, 2018)",
  "data": [
    {"assay": "EPR spin trapping (DMPO): activation of AcEPs by Fe2+", "details": "500 µM compound (200 µM AQ), 500 µM FeSO4, 40 mM DMPO, H2O, 5 min, 25 °C", "values": [
      {"smiles": "O=C1c2ccccc2C(=O)c2ccccc21", "note": "[AQ, anthraquinone, reference compound]", "DMPO spin adduct formation on reaction with Fe^2+ (EPR)": "did not show EPR signals of spin adducts"},
      {"smiles": "c1ccc2cc3ccccc3cc2c1", "note": "[Ac, anthracene]", "DMPO spin adduct formation on reaction with Fe^2+ (EPR)": "did not show EPR signals of spin adducts"},
      {"smiles": "c1ccc2c(c1)C1OOC2c2ccccc21", "note": "[AcEP1117, 9,10-dihydro-9,10-epidioxidoanthracene]", "DMPO spin adduct formation on reaction with Fe^2+ (EPR)": "did not result in detectable DMPO adducts"},
      {"smiles": "CC12OOC(C)(c3ccccc31)c1ccccc12", "note": "[AcEP1118, 9,10-dimethyl-9,10-dihydro-9,10-epidioxidoanthracene]", "DMPO spin adduct formation on reaction with Fe^2+ (EPR)": "showed six-line EPR spectra"},
      {"smiles": "CC12OOC(c3ccccc31)c1ccccc12", "note": "[AcEP1129, 9-methyl-9,10-dihydro-9,10-epidioxidoanthracene]", "DMPO spin adduct formation on reaction with Fe^2+ (EPR)": "showed six-line EPR spectra"},
      {"smiles": "CCc1ccc2c(c1)C1OOC2c2ccccc21", "note": "(stereo not drawn) [AcEP1130, 2-ethyl-9,10-dihydro-9,10-epidioxidoanthracene]", "DMPO spin adduct formation on reaction with Fe^2+ (EPR)": "did not result in detectable DMPO adducts"}
    ]}
  ]
}
